The values below are quoted from earlier work in patent publication US9782422B2, “Treatment of conditions associated with mycotoxin exposure” (dated 2017).

Structures are written as SMILES.

The conditions of this data set: water and polar solvents; cited from earlier work.

Regarding `CC1=C[C@H]2O[C@@H]3[C@H](O)C[C@](C)([C@@]2(CO)[C@H](O)C1=O)[C@]31CO1`, the solubility entry is “soluble in water and polar solvents such as methanol and acetonitrile”.
